From US11604185B2 (priority 2007, dated 2023) come the findings set out here.

Amino acid sequences for entries named in this document (tags omitted). Residues count along the entry.
UniProt P0DPI1, whole entry, looked up: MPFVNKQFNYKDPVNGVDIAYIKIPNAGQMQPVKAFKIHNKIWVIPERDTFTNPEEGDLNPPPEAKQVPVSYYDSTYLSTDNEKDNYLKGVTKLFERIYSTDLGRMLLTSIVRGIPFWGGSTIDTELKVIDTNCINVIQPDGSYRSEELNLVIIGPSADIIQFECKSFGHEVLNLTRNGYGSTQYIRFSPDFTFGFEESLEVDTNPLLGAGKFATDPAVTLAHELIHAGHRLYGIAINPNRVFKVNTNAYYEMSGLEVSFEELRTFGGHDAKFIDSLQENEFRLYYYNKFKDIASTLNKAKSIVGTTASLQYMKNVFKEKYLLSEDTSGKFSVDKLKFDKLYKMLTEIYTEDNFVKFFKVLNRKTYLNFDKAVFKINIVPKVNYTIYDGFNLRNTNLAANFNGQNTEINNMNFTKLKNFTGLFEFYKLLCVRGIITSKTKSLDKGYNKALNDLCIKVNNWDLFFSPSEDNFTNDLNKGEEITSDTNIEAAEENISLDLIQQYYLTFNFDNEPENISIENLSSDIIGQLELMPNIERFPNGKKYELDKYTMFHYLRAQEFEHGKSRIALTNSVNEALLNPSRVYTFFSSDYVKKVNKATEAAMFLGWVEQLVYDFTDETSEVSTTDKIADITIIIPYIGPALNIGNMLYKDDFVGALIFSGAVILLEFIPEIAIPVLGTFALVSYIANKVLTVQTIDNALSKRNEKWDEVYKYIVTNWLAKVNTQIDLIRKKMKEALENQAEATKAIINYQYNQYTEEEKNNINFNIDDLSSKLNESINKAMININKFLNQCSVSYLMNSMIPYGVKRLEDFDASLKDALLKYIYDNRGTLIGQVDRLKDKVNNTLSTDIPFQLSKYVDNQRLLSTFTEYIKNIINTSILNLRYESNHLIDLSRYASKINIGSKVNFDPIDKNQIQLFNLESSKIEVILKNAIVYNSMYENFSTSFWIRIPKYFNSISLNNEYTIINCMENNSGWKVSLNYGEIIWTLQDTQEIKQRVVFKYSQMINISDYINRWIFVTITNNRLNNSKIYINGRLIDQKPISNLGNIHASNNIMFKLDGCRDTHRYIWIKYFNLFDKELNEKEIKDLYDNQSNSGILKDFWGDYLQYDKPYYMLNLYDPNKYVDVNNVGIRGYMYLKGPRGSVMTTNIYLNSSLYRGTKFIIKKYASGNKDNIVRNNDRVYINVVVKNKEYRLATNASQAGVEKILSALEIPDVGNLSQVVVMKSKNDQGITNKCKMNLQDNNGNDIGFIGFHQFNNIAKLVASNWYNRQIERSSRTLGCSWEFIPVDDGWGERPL
UniProt P00800, 233-548 limits assumed: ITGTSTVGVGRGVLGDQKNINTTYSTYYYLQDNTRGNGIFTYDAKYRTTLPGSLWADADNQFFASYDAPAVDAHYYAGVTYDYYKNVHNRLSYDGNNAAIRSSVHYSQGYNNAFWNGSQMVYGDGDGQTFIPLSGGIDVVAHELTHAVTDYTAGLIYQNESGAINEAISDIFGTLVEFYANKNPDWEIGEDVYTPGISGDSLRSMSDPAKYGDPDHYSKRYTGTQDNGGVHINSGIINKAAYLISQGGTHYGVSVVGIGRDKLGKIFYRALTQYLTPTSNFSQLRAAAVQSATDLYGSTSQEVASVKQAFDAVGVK
UniProt P06873, 106-384 limits assumed: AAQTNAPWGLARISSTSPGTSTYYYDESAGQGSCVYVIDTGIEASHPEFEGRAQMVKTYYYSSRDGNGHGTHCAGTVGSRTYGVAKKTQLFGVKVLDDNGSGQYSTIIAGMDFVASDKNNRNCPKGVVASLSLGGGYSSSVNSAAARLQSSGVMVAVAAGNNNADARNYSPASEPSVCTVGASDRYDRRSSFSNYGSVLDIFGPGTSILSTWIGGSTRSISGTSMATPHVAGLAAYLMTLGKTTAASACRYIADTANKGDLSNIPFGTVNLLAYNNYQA
UniProt P00761, 9-231 limits assumed: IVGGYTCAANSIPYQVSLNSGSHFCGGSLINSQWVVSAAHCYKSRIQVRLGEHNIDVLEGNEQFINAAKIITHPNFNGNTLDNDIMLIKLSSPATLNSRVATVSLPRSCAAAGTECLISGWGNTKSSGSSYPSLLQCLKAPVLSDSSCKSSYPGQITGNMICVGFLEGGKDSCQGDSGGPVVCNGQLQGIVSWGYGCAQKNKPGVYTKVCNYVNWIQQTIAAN

For assay [1], the target named is BoNT/A LC (Clostridium botulinum, UniProt P0DPI1). As to the kind of experiment: BoNT/B substrate cleavage by recombinant BoNT/A LC. The conditions noted are these: 10 nM recombinant LC/A, 37° C.
For assay [2], the target named is Thermolysin (Bacillus thermoproteolyticus, UniProt P00800).
Assay [3] concerns the target BoNT/A (Clostridium botulinum, UniProt P0DPI1). The assay can be described thus: Michaelis-Menten kinetics of cleavable and control peptides with BoNT/A. The conditions noted are these: BoNT/A 10 nM, 2 hours.
Assay [4] deals with Proteinase K (Parengyodontium album, UniProt P06873).
Assay [5] addresses Trypsin (Sus scrofa, UniProt P00761).

For the molecule “K[5-Fam]LSELDDRADALQAGASQFETSAAKLKRK[DABCYL]-amide”, in assay [1], the “cleavage by BoNT/A LC” value was “did not cleave”.

What is called Km is the concentration of substrate that gives half-maximal velocity. For the molecule `CCCC[C@H](NC(=O)[C@H](CCCCNC(=O)c1ccc(N=Nc2ccc(N(C)C)cc2)cc1)NC(=O)[C@@H](NC(=O)[C@H](C)NC(=O)[C@H](CCCNC(=N)N)NC(=O)[C@H](CCC(N)=O)NC(=O)[C@H](CC(N)=O)NC(=O)[C@H](C)NC(=O)[C@H](CCC(=O)O)NC(=O)[C@H](CC(=O)O)NC(=O)[C@@H](NC(=O)[C@H](CCCNC(=N)N)NC(=O)[C@@H](NC(=O)c1ccc2c(c1)C(=O)OC21c2ccc(O)cc2Oc2cc(O)ccc21)[C@@H](C)O)[C@@H](C)CC)[C@@H](C)O)C(N)=O`, the Km in assay [2] amounted to 8.16 µM; in assay [3], 4.99 µM; in assay [4] it was 5.46 µM; in assay [5] it was 9.67 µM.

In the case of `CCCC[C@H](NC(=O)[C@H](CCCCNC(=O)c1ccc(N=Nc2ccc(N(C)C)cc2)cc1)NC(=O)[C@@H](NC(=O)[C@H](C)NC(=O)[C@H](CCCNC(=N)N)NC(=O)[C@H](CCC(N)=O)NC(=O)[C@H](CC(N)=O)NC(=O)[C@H](C)NC(=O)[C@H](CCC(=O)O)NC(=O)[C@H](CC(=O)O)NC(=O)[C@@H](NC(=O)[C@H](CCCNC(=N)N)NC(=O)[C@@H](NC(=O)Cc1c(C)c2ccc(O)cc2oc1=O)[C@@H](C)O)[C@@H](C)CC)[C@@H](C)O)C(N)=O`, the Km stood at 12.7 µM in assay [2], 2.62 µM in assay [3], 4.48 µM in assay [4] and 3.4 µM in assay [5].
